# Reference: PubChem BioAssay AID651610 (Broad Institute, 2012)
# The list shows a part of the results, in another mix than the full data. Activity calls are given as the source filed them.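 The calls were made as follows: active = mean replicate inhibition score of at least 50 and every replicate individually at or above 50; inconclusive = only one of the two criteria met; inactive = mean below 50 and not all replicates reaching 50.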
# Assay: blockers of JRFL envelope-mediated fusion – HeLa-JRFL effector, CEM21 target cells, luciferase, primary screen (AID 651610);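 also: 0% = plate neutral controls and 100% = maraviroc near 300 nM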
# Conditions: HeLa-JRFL Env/CEM21 cell fusion, at 12.3 µM, active compounds read high
row,SMILES,inhibition
1,CCCCn1nnnc1C(c1ccccc1)N1CCC(n2c(=O)[nH]c3ccccc32)CC1 (centres undefined),inactive: 1.88%
2,O=c1[nH]c2ccccc2n1C1CCN(C(c2cccs2)c2nnnn2C2CCCCC2)CC1 (centres undefined),inactive: -220%
3,O=c1[nH]c2ccccc2n1C1CCN(C(c2ccnc3ccccc23)c2nnnn2C2CCCC2)CC1 (centres undefined),inactive: -4.34%
4,COc1ccc(C(=O)NCC2(N3CCOCC3)CCCCC2)cc1OC,inactive: 2.64%
5,COc1cccc(C(c2nnnn2C(C)(C)C)N2CCC(n3c(=O)[nH]c4ccccc43)CC2)c1OC (centres undefined),inactive: 6.14%
6,CCOC(=O)N1CCC(Nc2ccc(C)cc2)CC1,inactive: -7.09%
7,O=c1[nH]c2ccccc2n1C1CCN(C(c2cccs2)c2nnnn2C2CCCC2)CC1 (centres undefined),inactive: -25.1%
8,O=C(OC1CN2CCC1CC2)C1c2ccccc2C=Cc2ccccc21 (centres undefined),inactive: -7.22%
9,CCCCn1nnnc1C(c1cccc(OC)c1OC)N1CCC(n2c(=O)[nH]c3ccccc32)CC1 (centres undefined),inactive: -26.9%
10,N#Cc1ccc(C(=O)NCC2(N3CCCCC3)CCCCC2)cc1,inactive: 12.4%
11,CC(C)(C)OC(=O)N1CCC(N(C(=O)c2ccccc2)c2ccc(Cl)cc2)CC1,inactive: 0.733%
12,CN(C)C1(CNC(=O)c2cccc(C#N)c2)CCCCC1,inactive: 2.61%
13,Cc1cc(N(CCCl)CCCl)ccc1C=O,inactive: 35.8%
14,O=c1[nH]c2ccccc2n1C1CCN(C(c2ccccc2)c2nnnn2C2CCCC2)CC1 (centres undefined),inactive: -33.6%
15,CCCN1CCC(Nc2cc(OC)cc(OC)c2)CC1,inactive: -24.9%
16,c1ccc(CN2CCC(Nc3ccccc3)CC2)cc1,inactive: -22%
17,C/C(N)=N\P(=O)(Oc1ccccc1)Oc1ccccc1,inactive: 2.82%
18,CC(C)(C)n1nnnc1C(c1cccc2ccccc12)N1CCC(n2c(=O)[nH]c3ccccc32)CC1 (centres undefined),inactive: 3.22%
19,CCC(c1nnnn1C1CCCCC1)N1CCC(n2c(=O)[nH]c3ccccc32)CC1 (centres undefined),inactive: -4.19%
20,CC(=O)N(c1ccccc1)C1CCNCC1,inactive: 0.4%

row,SMILES,inhibition
1,COc1cccc(C(c2nnnn2C2CCCCC2)N2CCC(n3c(=O)[nH]c4ccccc43)CC2)c1OC (centres undefined),inactive: 38.9%
2,O=c1[nH]c2ccccc2n1C1CCN(C(c2ccnc3ccccc23)c2nnnn2C2CCCCC2)CC1 (centres undefined),inactive: -14.3%
3,COc1cc(OC)cc(C(=O)NCC2(N3CCCCC3)CCCCC2)c1,inactive: 3.06%
4,Cc1ccc(C(=O)NCC2(N3CCCCC3)CCCCC2)o1,inactive: -1.43%
5,Cc1ccc(NC2(C#N)CCN(Cc3ccccc3)CC2)cc1,inactive: -7.78%
6,CC(C)(C)n1nnnc1C(c1ccnc2ccccc12)N1CCC(n2c(=O)[nH]c3ccccc32)CC1 (centres undefined),inactive: -31.7%
7,CCN1CCC(Nc2cccc(F)c2)CC1,inactive: -7.41%
8,COc1ccc(C(c2nnnn2C2CCCCC2)N2CCC(n3c(=O)[nH]c4ccccc43)CC2)cc1 (centres undefined),inactive: -30.6%
9,Cn1c(=O)[nH]cc(N(CCCl)CCCl)c1=O,inactive: 21.8%
10,CN(C)c1ccc(C(=O)NCC2(N3CCCCC3)CCCCC2)cc1,inactive: 15.7%
11,CN1CCC(Nc2ccc(F)c(Cl)c2)CC1,inactive: 11.7%
12,CCOc1ncccc1C(=O)NCC1(N2CCOCC2)CCCCC1,inactive: -24.7%
13,NN(c1ccccc1)C1CCN(CCc2ccccc2)CC1,inactive: 11.7%
14,O=C(O)C1(Nc2ccccc2)CCN(Cc2ccccc2)CC1,inactive: -12.6%
15,CC(C)(C)OC(=O)N1CCC(Nc2ccccc2)CC1,inactive: 12%
16,CCCOc1ccc(C(=O)NCC2(N(C)C)CCCCC2)cc1,inactive: 6.42%
17,O=c1[nH]c2ccccc2n1C1CCN(C(c2cc3ccccc3o2)c2nnnn2C2CCCC2)CC1 (centres undefined),inactive: -9.23%
18,COc1cccc(C(=O)N(c2cc(C)cc(C)c2)C2CCN(C(=O)OC(C)(C)C)CC2)c1,inactive: 23.2%
19,COc1cccc(C(c2nnnn2C2CCCC2)N2CCC(n3c(=O)[nH]c4ccccc43)CC2)c1OC (centres undefined),inactive: -53.9%
20,COc1cc(OC)cc(C(=O)NCC2(N3CCOCC3)CCCCC2)c1,inactive: 11%

row,SMILES,inhibition
1,CN1CCC(Nc2ccc(Cl)cc2)CC1,inactive: -21.8%
2,CC(C)(C)OC(=O)N1CCC(N(C(=O)c2ccccc2)c2ccc(F)cc2)CC1,inactive: -2.61%
3,COc1ccc(C(=O)NCC2(N3CCCCC3)CCCCC2)c(OC)c1OC,inactive: -14.9%
4,COc1ccc(C(=O)NCC2(N3CCCCC3)CCCCC2)cc1,inactive: 3.08%
5,O=C(NCC1(N2CCCCC2)CCCCC1)c1cccs1,inactive: -7.65%
6,CCCCn1nnnc1C(CC)N1CCC(n2c(=O)[nH]c3ccccc32)CC1 (centres undefined),inactive: 25.2%
7,O=C(NCC1(N2CCCCC2)CCCCC1)c1ccc(=O)[nH]c1,inactive: 0.229%
8,Cc1cccc(NC2(C#N)CCN(Cc3ccccc3)CC2)c1,inactive: -6.09%
9,CSc1ccccc1C(=O)NCC1(N2CCCCC2)CCCCC1,inactive: 12.2%
10,Cc1cc(C)cc(N(C(=O)c2ccccc2)C2CCN(C(=O)OC(C)(C)C)CC2)c1,inactive: -27.4%
11,O=c1[nH]c2ccccc2n1C1CCN(C(c2ccccc2OC(F)(F)F)c2nnnn2C2CCCCC2)CC1 (centres undefined),inactive: -68.4%
12,O=C(NCC1(N2CCCCC2)CCCCC1)c1ccc(Cl)nc1,inactive: -9.9%
13,O=c1[nH]c2ccccc2n1C1CCN(C(c2cc3ccccc3o2)c2nnnn2C2CCCCC2)CC1 (centres undefined),inactive: -40.3%
14,N#CC1(Nc2ccccc2)CCN(Cc2ccccc2)CC1,inactive: 14.6%
15,O=C(NCC1(N2CCCCC2)CCCCC1)c1ccc(Cl)s1,inactive: 11.4%
16,CCCCn1nnnc1C(c1ccc(OC)cc1)N1CCC(n2c(=O)[nH]c3ccccc32)CC1 (centres undefined),inactive: -0.616%
17,CCOC(=O)N1CCC(Nc2ccc(OC)cc2)CC1,inactive: 12%
18,CC(C)(C)n1nnnc1C(c1ccccc1)N1CCC(n2c(=O)[nH]c3ccccc32)CC1 (centres undefined),inactive: -2.03%
19,CCOc1ccc(C)cc1CN(CCCl)CCCl,inactive: 1.87%
